Pooled drug test results. Numbers come from NIAID ChemDB, via PubChem.

Common to all: whole-cell or culture tests; species: Punta Toro virus; cell line: VERO; read-out: EC50

ECn: concentration that inhibits the pathogen or its effect by n%. Blank or dashed fields: not listed here. Rows are shuffled and stem from different studies.

compound | strain | read by | result
CC1(C)[C@@H](CO)CC[C@@]1(C)Cn1cnc2c(=O)[nH]cnc21 |  | cytopathic effect | >400 µg/mL
CCC(Sc1ncnc2c1cnn2CCCCO)C(N)=O |  | cytopathic effect | >400 µg/mL
CCOC(=O)CSc1nnc(-c2cn(-c3ccccc3)nc2-c2ccccc2)n1N |  | cytopathic effect | >16 µg/mL
NC(=O)c1[nH]nc([C@@H]2O[C@H](CO)[C@@H](O)[C@H]2O)c1O | Adames | cytopathic effect | 0.47 µg/mL
N#CC1=CSc2nnc(-c3cn(-c4ccccc4)nc3-c3ccccc3)n2N=C1N |  | cytopathic effect | >16 µg/mL
COC(=O)[C@]1(C)CCC[C@]2(C)c3ccc4[nH]c(C(F)(F)F)nc4c3CCC12 |  | plaque count | >4 µg/mL
OCCCCn1nncc1Cn1ncc2c(SCc3ccccc3)ncnc21 |  |  | >400 µg/mL
NC(=O)CSc1ncnc2c1cnn2COCCO |  | cytopathic effect | >400 µg/mL
CC1(C)[C@@H](CCO)C[C@H]1n1cnc2c(=O)[nH]c(N)nc21 |  | cytopathic effect | >400 µg/mL
CC1(C)[C@@H](CO)CC[C@@]1(C)Cn1cc(I)c(=O)[nH]c1=O |  | cytopathic effect | >400 µg/mL
CC1(C)[C@@H](CCO)C[C@H]1n1cnc2c(N)ncnc21 |  | cytopathic effect | >400 µg/mL
CC(Sc1ncnc2c1cnn2COCCO)C(N)=O |  | cytopathic effect | >400 µg/mL
CCOP(=O)(NC(C)C(=O)OC)OC[C@H]1O[C@@H](n2ncc(=O)[nH]c2=O)C(O)C1O | Adames | cytopathic effect | 260 µg/mL
COC(=O)[C@]1(C)CCC[C@]2(C)c3cc(Br)c4nc(C)[nH]c4c3CCC12 |  | plaque count | >4 µg/mL
CC1(C)[C@@H](CCO)C[C@H]1n1nnc2c(N)nc(N)nc21 |  | cytopathic effect | >400 µg/mL
Nc1ncnc2c1cnn2Cc1cn(CCCCO)nn1 |  |  | >400 µg/mL
NC1=CC(c2ccccc2)=Nn2c(nnc2-c2cn(-c3ccccc3)nc2-c2ccccc2)S1 |  | cytopathic effect | >16 µg/mL
CC1(C)[C@@H](CO)CC[C@@]1(C)Cn1cnc2c(N)ncnc21 |  | cytopathic effect | >400 µg/mL
S=c1[nH]nc(-c2cn(-c3ccccc3)nc2-c2ccccc2)o1 |  | cytopathic effect | >16 µg/mL
COC(=O)[C@]1(C)CCC[C@]2(C)c3cc(Br)c4nc[nH]c4c3CCC12 |  | plaque count | >4 µg/mL
O=c1[nH]n2c(-c3cn(-c4ccccc4)nc3-c3ccccc3)nnc2sc1=O |  | cytopathic effect | >80 µg/mL
OCCCCn1cc(Cn2ncc3c(NCc4ccccc4)ncnc32)nn1 |  |  | >400 µg/mL
CCOC(=O)Sc1nnc(-c2cn(-c3ccccc3)nc2-c2ccccc2)n1N |  | cytopathic effect | >80 µg/mL
O=c1cnn([C@@H]2O[C@H](CO)[C@@H](O)[C@H]2O)c(=S)[nH]1 | Adames | cytopathic effect | 1.07 µg/mL
COC(=O)[C@]1(C)CCC[C@]2(C)c3ccc4nc(-c5ccccc5)c(-c5ccccc5)nc4c3CCC12 |  | plaque count | >4 µg/mL
c1ccc(C2=Nn3c(nnc3-c3cn(-c4ccccc4)nc3-c3ccccc3)SC2)cc1 |  | cytopathic effect | >16 µg/mL

The last 2 rows once more:

{"compound": "COC(=O)[C@]1(C)CCC[C@]2(C)c3ccc4nc(-c5ccccc5)c(-c5ccccc5)nc4c3CCC12", "read by": "plaque count", "result": ">4 µg/mL"}
{"compound": "c1ccc(C2=Nn3c(nnc3-c3cn(-c4ccccc4)nc3-c3ccccc3)SC2)cc1", "read by": "cytopathic effect", "result": ">16 µg/mL"}